A mixed list of measured activities; the numbers were collected in NIAID ChemDB.

Shared fields: growth or infection tests; agent: HIV-1; measure: EC50

Neighbouring rows are from separate reports.

structure | strain | mutations | cells | method | value
CC(=O)N[C@@H](CCCN(Cc1ccccc1)C(=O)NCCCl)C(=O)NCc1ccccc1 | IIIB |  | CEM-IW + CEM | cytopathic effect / XTT | >100 µM
Cc1ncc(-c2cnc(OCCN3CCOCC3)c(F)c2)c(N2CCC(C)(C)CC2)c1[C@H](OC(C)(C)C)C(=O)O | NL4-3 |  | MT-2 | luminescence | 0.0027 µM
COc1cc(-c2ccc(N=Nc3ccc4c(S(=O)(=O)O)cc(S(=O)(=O)O)c(N)c4c3O)c(OC)c2)ccc1N=Nc1ccc2c(S(=O)(=O)O)cc(S(=O)(=O)O)c(N)c2c1O | TP1 |  | CEM + CEM-SS | cytopathic effect / XTT | 0.6 µM
CC1CN(C(=O)C(=O)c2c[nH]c3cccc(F)c23)CC(C)N1C(=O)c1ccccc1 |  |  | HeLa + HELA CD4+/CCR5 | luciferase | <10 µM
C[C@@H]1CN(C(=O)c2ccccc2)CCN1C(=O)C(=O)c1c[nH]c2c(NC(=O)NCCCCCC(=O)O)cccc12 |  |  | HeLa | luciferase / reporter gene | <1 µM
O=C(C(=O)N1CCN(C(=O)c2ccc(Cl)o2)CC1)c1c[nH]c2c(F)ccc(F)c12 |  |  | HeLa + HELA CD4+/CCR5 | luciferase | <10 µM
Cc1cc(S(N)(=O)=O)ccc1NC(=O)COc1ccc(Cl)cc1C(=O)c1cc(F)cc(C(F)(F)F)c1 | IIIB | RT-L100I | HELA MAGI | luciferase | 0.0012 µM
CN(CCc1ccccc1)Cc1ccc2c(c1)C[C@H](CN=C(N)N)[C@H]2NC(=O)C(=O)Nc1ccc(Cl)c(F)c1 | AD8 |  | Cf2Th-CD4/CCR5 | luminescence | 7.1 µM
C=CCN(C(=O)[C@H](Cc1cc(F)cc(F)c1)NC(=O)CCC(=O)N[C@@H](Cc1cc(F)cc(F)c1)C(=O)N(CC=C)c1ccc(OC)cc1)c1ccc(OC)cc1 | NL4-3 |  | MT-2 | luciferase | 7.66 µM
CC(C)[C@H](NC(=O)[C@H](Cc1cccc2ccccc12)CS(=O)(=O)C(C)(C)C)C(=O)N[C@@H](Cc1ccc(O)cc1)[C@@H](O)[C@H](O)[C@H](Cc1ccc(O)cc1)NC(=O)[C@@H](NC(=O)[C@H](Cc1cccc2ccccc12)CS(=O)(=O)C(C)(C)C)C(C)C | D34 |  | PBLC | p24 | 0.3 µM
CN(CC(=O)O)Cc1ccc2c(c1)C[C@H](CN=C(N)N)[C@H]2NC(=O)C(=O)Nc1ccc(Cl)c(F)c1 | YU2 |  | Cf2Th-CD4/CCR5 | luminescence | 5.2 µM
COc1cccc2[nH]cc(C(=O)C(=O)N3CCN(C(=O)c4ccccc4)C[C@H]3C)c12 | MN |  | MT-2/CXCR4 | virus yield | 0.844 µM
COc1ccc(OCCNc2ccc(-c3cnc(C)c([C@H](OC(C)(C)C)C(=O)O)c3N3CCC(C)(C)CC3)nc2)cc1 | NL4-3 |  | MT-2 | luminescence | 0.0016 µM
CC(C)[C@H](NC(=O)[C@H](Cc1cccc2ccccc12)CS(=O)(=O)C(C)(C)C)C(=O)NCCCCNC(=O)[C@@H](NC(=O)[C@H](Cc1cccc2ccccc12)CS(=O)(=O)C(C)(C)C)C(C)C | D34 |  | PBLC | p24 | 3 µM
CC(C)=CCOc1cc(NC(=S)c2ccoc2C)ccc1Cl | Costatolide-resistant (RT Y188H) | RT-Y188H | CEM + CEM-SS | cytopathic effect / XTT | 0.1 µM
CC(C)[C@H](NC(=O)[C@@H](N)Cc1ccccc1)C(=O)N[C@@H](Cc1ccccc1)[C@@H](O)[C@H](O)[C@H](Cc1ccccc1)NC(=O)[C@@H](NC(=O)[C@@H](N)Cc1ccccc1)C(C)C | D34 |  | PBLC | p24 | >25 µM
CCc1ncc(N(C)C(=O)[C@H](Cc2cc(F)cc(F)c2)NC(=O)c2ccc(F)c(C(=O)N[C@@H](Cc3cc(F)cc(F)c3)C(=O)N(C)c3cnc(CC)nc3)c2)cn1 | NL4-3 |  | MT-2 | luciferase | 14.45 µM
CC(C)N(C)Cc1ccc2c(c1)C[C@H](CN=C(N)N)[C@H]2NC(=O)C(=O)Nc1ccc(Cl)c(F)c1 | JR-FL |  | Cf2Th-CD4/CCR5 | luminescence | 12.5 µM
CC(C)=CCN1Cc2cccc3[nH]c(=O)n(c23)CC1C | UC10-resistant (RT Y181C K101E) | RT-Y181C K101E | CEM + CEM-SS | cytopathic effect / XTT | >35 µM
CCCc1cc(=O)oc2c3c(c4c(c12)OC(C)(C)CC4)O[C@H](C)[C@@H](C)C3=O | TEKI |  | AA5 | cytopathic effect / XTT | >10 µM
Cc1ncc(-c2ccc(OCCN3CCCC3)cn2)c(N2CCC(C)(C)CC2)c1[C@H](OC(C)(C)C)C(=O)O | NL4-3 |  | MT-2 | luminescence | 0.204 µM
COc1ccc(N(C)C(=O)[C@H](Cc2ccccc2)Nc2ncnc(N[C@@H](Cc3ccccc3)C(=O)N(C)c3ccc(OC)cc3)n2)cc1 | NL4-3 |  | MT-2 | luciferase | 6.87 µM
CC(C)=CCOc1cc(NC(=S)c2ccsc2C)ccc1Cl | 3TC-RS (RT-M184I) | RT-M184I | CEM + CEM-SS | cytopathic effect / XTT | 0.008 µM
CC(C)[C@H](NC(=O)[C@H](Cc1cccc2ccccc12)CS(=O)(=O)C(C)(C)C)C(=O)N[C@@H](Cc1ccccc1)[C@H](N)[C@H](O)[C@H](Cc1ccccc1)NC(=O)[C@@H](NC(=O)[C@H](Cc1cccc2ccccc12)CS(=O)(=O)C(C)(C)C)C(C)C | D34 |  | PBLC | p24 | >100 µM
CCN1C[C@H](C)n2c(c(O)c3c(=O)n(Cc4ccc(F)c(Cl)c4)nc(C(=O)NC)c32)C1=O | NL4-3 | Wild type | PM1 | RT activity | 0.0019 µM
Cc1ccc(S(=O)(=O)Nc2cccc3c(C(=O)C(=O)N4CCN(C(=O)c5ccccc5)C[C@H]4C)cn(S(=O)(=O)c4ccc(C)cc4)c23)cc1 |  |  | HeLa | luciferase / reporter gene | <1 µM
COC(=O)c1cccc2c(C(=O)C(=O)N3CCN(C(=O)c4ccccc4)C(C(C)(C)C)C3)c[nH]c12 |  |  | HeLa + HELA CD4+/CCR5 | luciferase | <10 µM
C/C=C(\C)COc1ccc(-c2cnc(C)c([C@H](OC(C)(C)C)C(=O)O)c2N2CCC(C)(C)CC2)nc1 | NL4-3 |  | MT-2 | luminescence | 0.0061 µM
N#CC(=C1CCN(C(=O)C(=O)c2c[nH]c3c(NC(=O)NCCCCCC(=O)O)cccc23)CC1)c1ccccc1 |  |  | HeLa | luciferase / reporter gene | <1 µM
CC(=O)N[C@@H](CCCCNCc1ccccc1)C(=O)NCc1ccccc1 | IIIB |  | CEM-IW + CEM | cytopathic effect / XTT | >100 µM
CCOC(=O)c1ccccc1NC(=O)Nc1cccc2c(C(=O)C(=O)N3CCN(C(=O)c4ccccc4)C[C@H]3C)c[nH]c12 |  |  | HeLa | luciferase / reporter gene | <1 µM
COc1ccc(N(C)C(=O)[C@H](Cc2ccccc2)NC(=O)NS(=O)(=O)N[C@@H](Cc2ccccc2)C(=O)N(C)c2cc(C)c(OC)cc2C)cc1 | NL4-3 |  | MT-2 | luciferase | 4.22 µM
Cc1ccc(S)c(C(=O)N2CCN(C(=O)C(=O)c3c[nH]c4cccc(F)c34)CC2)c1 |  |  | HeLa + HELA CD4+/CCR5 | luciferase | <10 µM
COc1ccc(N(C)C(=O)[C@H](Cc2ccccc2)NC(=O)Cn2c(=O)n(CC(=O)N[C@@H](Cc3ccccc3)C(=O)N(C)c3ccc(OC)cc3)c3cc(OC)ccc32)cc1 | NL4-3 |  | MT-2 | luciferase | 0.09 µM
O=C(C(=O)N1CCN(C(=O)c2ccccc2)CC1)c1c[nH]c2cc(Cl)c(F)cc12 |  |  | HeLa + HELA CD4+/CCR5 | luciferase | <10 µM
Cc1ccc(OCCNc2ccc(-c3cnc(C)c([C@H](OC(C)(C)C)C(=O)O)c3N3CCC(C)(C)CC3)nc2)cc1C | NL4-3 |  | MT-2 | luminescence | 0.0032 µM
CC(C)[C@H](NC(=O)[C@@H](O)Cc1ccccc1)C(=O)N[C@@H](Cc1ccccc1)[C@@H](O)[C@H](O)[C@H](Cc1ccccc1)NC(=O)[C@@H](NC(=O)[C@@H](O)Cc1ccccc1)C(C)C | D34 |  | PBLC | p24 | 0.1 µM
C[C@@H]1CN(C(=O)c2ccccc2)CCN1C(=O)C(=O)c1c[nH]c2c(NC(=O)NCCCCCCNC(=O)NCCOCCOCCN)cccc12 |  |  | HeLa | luciferase / reporter gene | <1 µM
CC(C)[C@H](NC(=O)[C@H](Cc1cccc2ccccc12)CS(=O)(=O)C(C)(C)C)C(=O)N[C@@H](Cc1ccccc1)[C@H](O)[C@H](O)[C@H](Cc1ccccc1)NC(=O)[C@@H](NC(=O)[C@H](Cc1cccc2ccccc12)CS(=O)(=O)C(C)(C)C)C(C)C | D34 |  | PBLC | p24 | 0.217 µM
Cc1ccc(C)n1-c1ccc(C(=O)O)c(O)c1 | 93BR020 X4R5 CLADE F |  | PBMC + MT-2 | p24 | 10.6 µM
CNC(=O)N(CCCC[C@H](NC(C)=O)C(=O)NCc1ccccc1)Cc1ccccc1 | IIIB |  | CEM-IW + CEM | cytopathic effect / XTT | >100 µM
Cc1ncc(-c2cnc(OCCCOc3ccccc3)c(F)c2)c(N2CCC(C)(C)CC2)c1[C@H](OC(C)(C)C)C(=O)O | NL4-3 |  | MT-2 | luminescence | 0.0028 µM
CNC(CC(=O)Nc1cccc2c(C(=O)C(=O)N3CCN(C(=O)c4ccccc4)C[C@H]3C)c[nH]c12)C(=O)O |  |  | HeLa | luciferase / reporter gene | <1 µM
C#CCNC(=O)NCCC[C@H](NC(C)=O)C(=O)NCc1ccccc1 | IIIB |  | CEM-IW + CEM | cytopathic effect / XTT | >100 µM
C[C@@H]1CN(C(=O)c2ccccn2)CCN1C(=O)C(=O)c1c[nH]c2cc(Cl)ccc12 |  |  | HeLa + HELA CD4+/CCR5 | luciferase | <10 µM
OCCC#Cc1nc(-c2ccc(F)cc2)c(-c2ccncc2)n1CCCc1ccccc1 | BaL |  | Mono Mac 6 | p24 | <1 µM
C[C@H]1CN(C(=O)c2ccccc2)CCN1C(=O)C(=O)c1c[nH]c2cccc(F)c12 |  |  | HeLa + HELA CD4+/CCR5 | luciferase | <10 µM
CCCN(CCCC[C@H](NC(C)=O)C(=O)NCc1ccccc1)C(=O)NC | IIIB |  | CEM-IW + CEM | cytopathic effect / XTT | >100 µM
COc1ccc(Cl)c2[nH]cc(C(=O)C(=O)N3CCN(C(=O)c4ccccc4)CC3)c12 |  |  | HeLa + HELA CD4+/CCR5 | luciferase | <10 µM
Cc1ncc(-c2ccc(OCC3CCC3)cn2)c(N2CCC(C)(C)CC2)c1[C@H](OC(C)C)C(=O)O | NL4-3 |  | MT-2 | luminescence | 0.005 µM

The first 4 rows once more:

structure,strain,mutations,cells,method,value
CC(=O)N[C@@H](CCCN(Cc1ccccc1)C(=O)NCCCl)C(=O)NCc1ccccc1,IIIB,,CEM-IW + CEM,cytopathic effect / XTT,>100 µM
Cc1ncc(-c2cnc(OCCN3CCOCC3)c(F)c2)c(N2CCC(C)(C)CC2)c1[C@H](OC(C)(C)C)C(=O)O,NL4-3,,MT-2,luminescence,0.0027 µM
COc1cc(-c2ccc(N=Nc3ccc4c(S(=O)(=O)O)cc(S(=O)(=O)O)c(N)c4c3O)c(OC)c2)ccc1N=Nc1ccc2c(S(=O)(=O)O)cc(S(=O)(=O)O)c(N)c2c1O,TP1,,CEM + CEM-SS,cytopathic effect / XTT,0.6 µM
CC1CN(C(=O)C(=O)c2c[nH]c3cccc(F)c23)CC(C)N1C(=O)c1ccccc1,,,HeLa + HELA CD4+/CCR5,luciferase,<10 µM

An empty or dashed field is not shown. ECn: concentration that inhibits the pathogen or its effect by n%.